Data on five molecules can be found in patent US20240382586A1 (TAKIS S R L, published 2024).

What all share (test): cell-based or functional assay
Assay [1] concerns the target SARS-CoV-2 spike, Brazilian variant P.1 (on pseudovirus) (SARS-CoV-2).
Assay [2] has as its target SARS-CoV-2 spike, Delta variant B1.617.2 (on pseudovirus) (SARS-CoV-2).
Assay [3] has as its target T1, SARS-CoV-2 spike, variant D614G (on virus or pseudovirus) (SARS-CoV-2, UniProt P0DTC2 14-1273).
For assay [4], the target named is T1, SARS-CoV-2 spike, variant D614G (on …). This is another data set of the same source.
Assay [5] addresses SARS-CoV-2 spike, variant N501Y (B.1.1.7, British) (on virus or pseudovirus) (SARS-CoV-2, UniProt P0DTC2 14-1273).

B1: humanised 9-8F2-B11 (VH3VL3) (antibody, V domains shown)
VH: QVQLVQSGAEVKKPGASVKVSCKASGFNIKETYVHWVRQAPGQGLEWMGRIDPAIGDSEYAQKFQGRVTMTRDTSISTAYMELSRLRSDDTAVYYCARTWGPFFDFWGQGTLVTVSS
VL: DIVMTQTPLSLSVTPGQPASISCKSSQSLLHSHGNTFLHWYLQKPGQSPQVLIYKVSSRFSGVPDRFSGSGSGTDFTLKISRVEAEDVGVYYCSQSTHVPYTFGQGTKLEIK
notes: also called 9-8F2-B11 humanised
As for B1, the “IC50 (ng/ml), pseudovirus neutralisation, Brazilian P.1” value (shortened to “IC50 (ng/ml) … Brazilian P.1”) in assay [1] was 3700 ng/mL. Moreover, the “IC50 (ng/ml), pseudovirus neutralisation, Delta B1.617.2” value (“IC50 (ng/ml) … Delta B1.617.2” below) in assay [2] worked out at 113 ng/mL. In addition, in assay [3], the “IC50 (ng/ml), pseudovirus neutralisation, WT D614G” value (shortened to “IC50 (ng/ml) … WT D614G”) was 16 ng/mL.

B2: 9-8F2-B11 (mouse) (antibody, V domains shown)
VH: EVQLQQSGAELVKPGASVKLSCTASGFNIKETYVHWVKQRPEQGLEWIGRIDPAIGDSEYDPKFQGKATVTADTSSNTAYLQLSRLTSEDTAVYYCARTWGPFFDFWGQGTTLTVSS
VL: DVVMTQTPLSLPVSLGDQASISCRSSQSLVHSHGNTFLHWYLQKPGQSPKVLIYKVSSRFSGVPDRFSGSGAGTDFTLKISRVEAEDLGVYFCSQSTHVPYTFGGGTKLEIK
With B2, the “IC50 (ng/ml) … Brazilian P.1” value in assay [1] stood at 57 ng/mL. The “IC50 (ng/ml) … Delta B1.617.2” value in assay [2] came to 127 ng/mL. Also, the “IC50 (ng/ml) … WT D614G” value in assay [3] amounted to 11 ng/mL. For the same molecule, the “EC50 virus D614G (ng/ml), SARS-CoV-2 neutralisation on Vero E6 cells” value (shortened to “EC50 virus D614G (ng/ml)”) in assay [4] stood at 5.49 ng/mL. Moreover, the “EC50 virus N501Y (ng/ml), SARS-CoV-2 neutralisation on Vero E6 cells” value (from here on “EC50 virus N501Y (ng/ml)”) in assay [5] is 0.87 ng/mL.

B3: 9-2H7-D7 (mouse) (antibody, V domains shown)
VH: EVQLQQSGPELVKPGASVTISCKTSGYTFTEYTMYWVKQSHGKSLEWIGGINPYIGDTSYNQNFKGKATLTVDKSSSTAYMELRSLTSEDSAVYYCARDGYPDYSAMDFWGQGTSVTVSS
VL: DIVMSQSPSSLAVSVGEKVTMNCKSSQNLLYSSNQKNYLAWYQQKPGQSPKLLIYWASTRESGVPDRFTGSGSGTDFTLTISSVKAEDLAVYSCQQYYTYPWTFGGGTKLEIK
As for B3, the “IC50 (ng/ml) … Brazilian P.1” value in assay [1] came out at 63 ng/mL. For the same molecule, the “IC50 (ng/ml) … Delta B1.617.2” value in assay [2] stood at 107 ng/mL. Also, the “IC50 (ng/ml) … WT D614G” value in assay [3] is 35 ng/mL. Also, in assay [4], the “EC50 virus D614G (ng/ml)” value is 10.2 ng/mL. Besides, in assay [5], the “EC50 virus N501Y (ng/ml)” value amounted to 15.2 ng/mL.

B4: 9-2H7-D7 chimera (antibody, V domains shown)
VH: EVQLQQSGPELVKPGASVTISCKTSGYTFTEYTMYWVKQSHGKSLEWIGGINPYIGDTSYNQNFKGKATLTVDKSSSTAYMELRSLTSEDSAVYYCARDGYPDYSAMDFWGQGTSVTVSS
VL: DIVMSQSPSSLAVSVGEKVTMNCKSSQNLLYSSNQKNYLAWYQQKPGQSPKLLIYWASTRESGVPDRFTGSGSGTDFTLTISSVKAEDLAVYSCQQYYTYPWTFGGGTKLEIK
Take B4: in assay [1], the “IC50 (ng/ml) … Brazilian P.1” value worked out at 11 ng/mL. The “IC50 (ng/ml) … Delta B1.617.2” value in assay [2] was 22 ng/mL. Moreover, the “IC50 (ng/ml) … WT D614G” value in assay [3] was determined as 19 ng/mL.

B5: 9-7A4-C2 (mouse) (antibody, V domains shown)
VH: EVQLQQSGPELVKPGASVKISCKTSGYTFTEYTMYWVKQSHGKSLEWIGGINPNNGDSSYIQKFKGKATLTVDESSSTAYMELRSLTSEDSAVYYCARDGYPNSYAMDYWGQGTSVTVSS
VL: DIVMSQSPSSLAVSVGDKVTMSCKSSQSLLYSTNQKNYLAWYQQKPGQSPKLLIYWASTRESGVPDRFTGSGSGTDFTLTIGSVRPEDLAVYYCQQYYSYPWTFGGGTKLEIK
For the molecule B5, the “IC50 (ng/ml) … Brazilian P.1” value in assay [1] worked out at 9 ng/mL. Moreover, the “IC50 (ng/ml) … Delta B1.617.2” value in assay [2] turned out to be 52 ng/mL. The “IC50 (ng/ml) … WT D614G” value in assay [3] amounted to 16 ng/mL. Also, the “EC50 virus D614G (ng/ml)” value in assay [4] is 3.21 ng/mL. Besides, the “EC50 virus N501Y (ng/ml)” value in assay [5] came out at 4.06 ng/mL.
